Data as given in PubChem BioAssay AID1259414 (Drosophila RNAi Screening Center, 2018).

Purpose: 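Genome-wide screen for host control of endosymbiont load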 (primary screen)
System: Drosophila JW18 cells infected with Wolbachia
Reagent: long dsRNA against Drosophila genes, 0.25 µg dsRNA per well of a 384-well plate
Time to read-out: 5 days
Challenge: cells persistently infected with Wolbachia before knock-down; no added drug
Measured: 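Imaged fluorescence in situ signal for Wolbachia 23S rRNA per DAPI-counted host cell, given as a robust z-score within each plate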
Reading the numbers: Wolbachia per cell robust z: higher = more Wolbachia per host cell than the plate typical
Active means: 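Hit when robust z is 1.5 or more, or -1.5 or less, in at least two of three replicates; excludes dsRNAs with several or no targets, genes not expressed in JW18 and well A1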
The screen tested about 24,000 reagents; this is an unselected part of those that have a named target and a result. Over the whole deposit, about 1,210 (5%) got an active call. 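Inactive calls also include excluded dsRNAs with several or no targets, genes unexpressed in JW18, and well A1, regardless of score.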 Reagents against one gene are numbered here. Names joined by + are all predicted targets of the reagent.

gene	reagent	Wolbachia per cell robust z, rep 1	Wolbachia per cell robust z, rep 2	Wolbachia per cell robust z, rep 3	outcome
CG14915	1	-0.512	-0.363	-0.676	inactive
CG14915	2	-0.515	-0.237	0.397	inactive
CG34295	1	-0.327	-0.655	-1.24	inactive
CG32266	1	-0.538	-0.0578	1.04	inactive
CG32266	2	0.409	0.0429	0.0275	inactive
ArfGAP1 (ADP-ribosylation factor GTPase activating protein 1)	1	0.33	-0.558	-0.181	inactive
moon (moonshiner)	1	-3.69	-0.736	-0.388	inactive
Gld (Glucose dehydrogenase)	1	0.492	1.31	0.321	inactive
Cnx99A (Calnexin 99A)	1	-0.841	0.733	0.484	inactive
CG2209	1	-1.16	-1.17	0.586	inactive
E(spl)m2-BFM (Enhancer of split m2, Bearded family member)	1	-1.76	-0.89	-1.96	active
E(spl)m2-BFM (Enhancer of split m2, Bearded family member)	2	0.888	0.775	0.365	inactive
APC10 (Anaphase Promoting Complex subunit 10)	1	-2.67	1.09	0.607	inactive
CG32225	1	-0.444	0.923	0.678	inactive
CG32225	2	-0.215	-1.04	-0.0422	inactive
Polr1D + DCTN6-p27	1	0.274	0.549	0.0163	inactive
Tsf1 (Transferrin 1)	1	-0.305	-0.139	0.951	inactive
Tsf1 (Transferrin 1)	2	-0.93	-0.604	-0.123	inactive
Npc2a (Niemann-Pick type C-2a)	1	-0.321	-0.543	0.743	inactive
Pngl (PNGase-like)	1	0.912	0.939	0.00326	inactive
run (runt)	1	1.91	-1.55	-4.7	inactive
run (runt)	2	0.0243	-0.196	-1.17	inactive
run (runt)	3	-0.789	-0.551	-0.671	inactive
run (runt)	4	0.503	0.6	0.451	inactive
CG31871	1	-0.672	-2.77	-0.476	inactive
CG31871	2	-1.61	-1.06	0.35	inactive
CG31871	3	0.418	0.0618	0.617	inactive
beat-IIIb (beaten path IIIb)	1	-0.00242	0.0754	-0.248	inactive
CG10209	1	0.631	-0.616	-1.44	inactive
CG14354	1	-0.137	-0.861	0.0887	inactive
Arp53D (Actin-related protein 53D)	1	0.541	-0.328	0.509	inactive
loaf (lost and found)	1	0.862	-5.94	0.023	inactive
CG3078	1	0.496	0.603	0.148	inactive
CG3078	2	0.71	1.03	0.973	inactive
CG3078	3	0.629	0.0634	-0.331	inactive
NPF (neuropeptide F)	1	-0.548	0.0024	0.0253	inactive

Hits, of those listed so far:
gene	reagent	Wolbachia per cell robust z, rep 1	Wolbachia per cell robust z, rep 2	Wolbachia per cell robust z, rep 3	outcome
E(spl)m2-BFM (Enhancer of split m2, Bearded family member)	1	-1.76	-0.89	-1.96	active

Next entries:
gene	reagent	Wolbachia per cell robust z, rep 1	Wolbachia per cell robust z, rep 2	Wolbachia per cell robust z, rep 3	outcome
GluProRS (Glutamyl-prolyl-tRNA synthetase)	1	0.678	-0.675	2.23	inactive
CG8563	1	-1.32	0.624	0.881	inactive
CG34251	1	0.437	0.0703	0.0658	inactive
CG13837	1	-3.95	1.23	1.87	inactive
Coa7 (Cytochrome c oxidase assembly factor 7)	1	1.31	0.139	0.546	inactive
Coa7 (Cytochrome c oxidase assembly factor 7)	2	-0.531	-2.19	0.101	inactive
PH4alphaSG1 (prolyl-4-hydroxylase-alpha SG1)	1	-1.16	-0.179	-0.487	inactive
CG4558	1	-0.467	1.18	-0.0776	inactive
Hez + CG6709	1	-2.27	-0.677	-1.61	inactive
Ctr9	1	0.712	0.2	-0.548	inactive
Ctr9	2	0.14	0.945	-1.48	inactive
CG6178	1	0.477	-0.231	0.421	inactive
Ect3 (Ectoderm-expressed 3)	1	-0.392	0.693	0.514	inactive
Ect3 (Ectoderm-expressed 3)	2	0.07	-0.292	1.31	inactive
Mur89F (Mucin related 89F)	1	0.284	-0.0218	0.123	inactive
Mur89F (Mucin related 89F)	2	-0.482	0.388	0.81	inactive
GIIIspla2 (Phospholipase A2 group III)	1	1.28	-0.0464	-3.62	inactive
GIIIspla2 (Phospholipase A2 group III)	2	0.682	-0.038	0.314	inactive
CG8997	1	-0.183	0.522	0.0876	inactive
CG8997	2	0.0159	1.33	0.573	inactive
PGRP-LB (Peptidoglycan recognition protein LB)	1	-1.81	-5.53	-0.677	active
Pkc53E (Protein C kinase 53E)	1	1.11	-0.676	0.851	inactive
CG11060	1	-1.22	0.748	-5.18	inactive
CG32857 + CG32500 + CG33502	1	0.699	0.484	-0.0143	inactive
Ir60c (Ionotropic receptor 60c)	1	-1.75	-0.798	-0.859	inactive
Trm7-34 (tRNA methyltransferase 7-34)	1	-0.548	-5.94	-1.38	inactive
CG5255	1	-5.16	0.527	-0.803	inactive
CG5255	2	-1.03	0.522	-0.656	inactive
CG31016	1	0.802	0.387	0.537	inactive
CG31016	2	1.09	0.984	1.4	inactive
CG15308	1	-1.9	-1.28	-2.11	inactive
CG18547	1	0.783	-0.417	-0.0024	inactive
